Patent US20230227512A1

Tests used:
201C-433C [1] = assay: SPR
201C-433C [2] = assay: BLI
[3] = target: BG505.SOSIP.664.201C-433C HIV-1 Env ectodomain trimer; assay: SPR

Substance	Kd (201C-433C [1])	Kd (201C-433C [2])	Kd [3]
VRC26.09	11.5 nM	33.6 nM	–
8ANC195	14.6 nM	–	–
b12	> 1000 nM	> 4000 nM	–
soluble CD4 (sCD4) (from UniProt P01730 26-208)	–	–	9.5 nM
PGT128	13.1 nM	–	–
